# Potato spindle tuber viroid, loop 15: variant abundance in plants

Reference: Wu et al. 2024, doi:10.1371/journal.ppat.1012142.

Region: loop 15 of PSTVd (intermediate strain), upper and lower strand joined, each 5' to 3', the first 7 letters being the upper strand, closing pairs included. Wild type: GGAAACCGCUACUAC. Varied positions (N): GGAAACCGNNNNNNC.

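Three N. benthamiana plants were inoculated with the whole mutant pool. Progeny were sequenced from the inoculated region (day 5), the margin of the inoculated leaf (day 10) and systemic leaves (day 12).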

Numbers give reads per thousand; 0 = not seen among the reads, higher = more abundant.
Each value is the mean of three plants.
"Pool" is the share in the plasmid pool used as inoculum, on the same scale.
The inoculated region was read from the minus strand, the other sites from the plus strand.
Samples held 43,870 to 66,106 reads, so the smallest values rest on one or two reads.

With GGAAACCGACGCAGC (pool 0.224) the assay gave inoculated region 0.136; leaf margin 0.00742; systemic leaves 0.
With GGAAACCGAGGCGUC (pool 0.224) the assay gave inoculated region 0.265; leaf margin 0.0208; systemic leaves 0.00504.
With GGAAACCGAUAUCAC (pool 0.176) the assay gave inoculated region 0.385; leaf margin 0.0958; systemic leaves 0.0515.
With GGAAACCGCCAAGUC (pool 0.368) the assay gave inoculated region 0.280; leaf margin 0.0900; systemic leaves 0.0215.
With GGAAACCGCGAGCUC (pool 0.304) the assay gave inoculated region 0.286; leaf margin 0.0860; systemic leaves 0.0107.
With GGAAACCGCGGCAAC (pool 0.224) the assay gave inoculated region 0.112; leaf margin 0.0121; systemic leaves 0.
With GGAAACCGCGUAGCC (pool 0.240) the assay gave inoculated region 0.0947; leaf margin 0.0134; systemic leaves 0.
With GGAAACCGCUCCUUC (pool 0.272) the assay gave inoculated region 0.257; leaf margin 0.129; systemic leaves 0.0183.
With GGAAACCGCUUUUCC (pool 0.224) the assay gave inoculated region 0.0900; leaf margin 0.0121; systemic leaves 0.
With GGAAACCGGAACACC (pool 0.240) the assay gave inoculated region 0.108; leaf margin 0.00668; systemic leaves 0.
With GGAAACCGGAUAGAC (pool 0.256) the assay gave inoculated region 0.110; leaf margin 0.00539; systemic leaves 0.
With GGAAACCGGCAGACC (pool 0.192) the assay gave inoculated region 0.112; leaf margin 0.00668; systemic leaves 0.
With GGAAACCGGCCCGCC (pool 0.0960) the assay gave inoculated region 0.0886; leaf margin 0.0241; systemic leaves 0.
With GGAAACCGGGACUAC (pool 0.288) the assay gave inoculated region 0.332; leaf margin 0.129; systemic leaves 0.0155.
With GGAAACCGGUACCAC (pool 0.288) the assay gave inoculated region 0.257; leaf margin 0.140; systemic leaves 0.108.
With GGAAACCGUACGCCC (pool 0.272) the assay gave inoculated region 0.0858; leaf margin 0.0334; systemic leaves 0.
With GGAAACCGUAUCUCC (pool 0.128) the assay gave inoculated region 0.0487; leaf margin 0.00539; systemic leaves 0.
With GGAAACCGUCAGUAC (pool 0.224) the assay gave inoculated region 0.323; leaf margin 0.107; systemic leaves 0.0107.
With GGAAACCGUGCGCGC (pool 0.192) the assay gave inoculated region 0.0966; leaf margin 0.00668; systemic leaves 0.00760.
With GGAAACCGUUAUACC (pool 0.304) the assay gave inoculated region 0.318; leaf margin 0.137; systemic leaves 0.0215.
With GGAAACCGUUUUGGC (pool 0.336) the assay gave inoculated region 0.146; leaf margin 0; systemic leaves 0.

The authors trace changes outside the varied positions to PCR and sequencing errors or to mutation in the plant; presence does not show that a variant is infectious alone.
Wild type was 33.9 per thousand in the pool and the most common sequence in every sample (inoculated region 202, 200, 159; leaf margin 724, 746, 710; systemic leaves 856, 883, 880).